From publication PMC3809513, “Imidazopyridazines as potent inhibitors of Plasmodium falciparum calcium-dependent protein kinase 1 (PfCDPK1): Preparation and evaluation of pyrazole linked analogues^” (Bioorganic & Medicinal Chemistry Letters, 2013)

Protein sequences, listed by entry. Tags and fused reporters are not part of them.
UniProt P62344, whole entry: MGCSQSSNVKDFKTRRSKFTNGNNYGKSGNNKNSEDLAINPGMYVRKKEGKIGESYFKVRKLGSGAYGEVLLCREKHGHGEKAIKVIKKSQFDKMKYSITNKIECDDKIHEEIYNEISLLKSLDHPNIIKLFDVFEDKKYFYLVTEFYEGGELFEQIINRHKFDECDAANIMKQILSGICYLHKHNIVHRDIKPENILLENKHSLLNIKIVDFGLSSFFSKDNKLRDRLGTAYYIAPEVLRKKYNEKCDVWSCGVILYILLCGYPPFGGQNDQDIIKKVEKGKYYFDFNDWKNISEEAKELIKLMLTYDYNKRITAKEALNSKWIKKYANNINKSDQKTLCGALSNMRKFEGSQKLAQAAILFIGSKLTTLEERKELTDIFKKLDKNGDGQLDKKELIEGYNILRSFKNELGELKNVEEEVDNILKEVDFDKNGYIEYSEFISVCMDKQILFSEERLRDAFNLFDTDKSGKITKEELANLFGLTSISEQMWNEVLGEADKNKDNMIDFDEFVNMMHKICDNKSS

Key:
PfCDPK1 = PfCDPK1 (Plasmodium falciparum, UniProt P62344); assay: PfCDPK1 enzyme inhibition; format: biochemical; conditions: read-out: PfCDPK1 IC50
P. falciparum = P. falciparum parasite growth assay (FACS, hydroethidine); format: cell-based, Plasmodium falciparum; conditions: in vitro parasite growth, compounds added 24 h post-invasion, cells recovered 48 h later; for EC50: read-out: Pf EC50
Procedure: [12] P. falciparum EC50 values were measured using an in vitro model of malaria parasite growth. Compounds were diluted into 2% DMSO and added to parasites 24 h post-invasion in a 96-well plate and incubated under static conditions. Cells were recovered 48 h later and processed for FACS analysis using hydroethidine to stain parasite DNA. Data was acquired using a Guava easyCyte Plus flow cytometer with ExpressPro software. Growth inhibition was calculated using the following formula: % growth inhibition = (1 − [parasitaemia of culture/parasitaemia of control culture]) × 100.

| SMILES | IC50 (PfCDPK1) | EC50 (P. falciparum) | Pf EC50 (P. falciparum) |
| --- | --- | --- | --- |
| CN1CCC(Nc2ccc3ncc(-c4cnn(-c5ccc(F)cc5)c4)n3n2)CC1 | 45 nM | 561 nM |  |
| CN1CCC(Nc2ccc3ncc(-c4cnn(-c5cccc(F)c5)c4)n3n2)CC1 | 138 nM | 394 nM |  |
| CN1CCC(Nc2ccc3ncc(-c4cnn(-c5ccccc5)c4)n3n2)CC1 | 71 nM |  | sub-micromolar |
